Results deposited as PubChem BioAssay AID624099 (ICCB-Longwood, 2012).

- Aim: 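Human genes that papillomavirus E2 requires to repress the HPV18 LCR promoter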 (primary screen)
- Cell system: human C33A cervical carcinoma cells (HPV-negative) stably expressing BPV1 E2 and an HPV18 LCR luciferase reporter
- Knock-down reagent: siRNA pool against human genes, 40 nM
- Duration: 72 h
- Measured: 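HPV18 LCR reporter light per well, converted to plate-wise z-scores that exclude control wells, and averaged over triplicate plates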
- Direction: mean z-score and z-score: higher = stronger reporter signal, weaker E2 silencing
- Call rule: 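Mean z ≥ 2 together with z ≥ 2 in two or more of the three replicates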
Here is one part, drawn at random, of about 21,000 deposited reagents. Over the whole deposit, 497 (2.4%) got an active call. 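Higher z means weaker E2 silencing; only reporter increases were scored, and knock-downs that hurt cell survival may mask genuine repressor factors.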 Entries without a mark were called inactive. The numbers tell different reagents against one gene apart. No sequences are given here.

With S100B (S100 calcium binding protein B), what was measured?
mean z-score: -0.28; z-score, replicate A: -0.2; z-score, replicate B: -0.35; z-score, replicate C: -0.29

How did the screen score SLC12A2?
mean z-score: -0.11; z-score, replicate A: 0.15; z-score, replicate B: -0.4; z-score, replicate C: -0.09

For PRKCSH (PRKCSH beta subunit of glucosidase II), what does the deposit list?
mean z-score: -0.35; z-score, replicate A: -0.44; z-score, replicate B: -0.37; z-score, replicate C: -0.23

For TTLL12 (tubulin tyrosine ligase like 12), how do the results read?
mean z-score: -0.84; z-score, replicate A: -0.83; z-score, replicate B: -0.88; z-score, replicate C: -0.79

How did the screen score TRIM10 (tripartite motif containing 10)?
mean z-score: -1.44; z-score, replicate A: -1.38; z-score, replicate B: -1.41; z-score, replicate C: -1.54

Already shown: 2 of the entries above.
SLC12A2 | mean z-score: -0.11; z-score, replicate A: 0.15; z-score, replicate B: -0.4; z-score, replicate C: -0.09
PRKCSH (PRKCSH beta subunit of glucosidase II) | mean z-score: -0.35; z-score, replicate A: -0.44; z-score, replicate B: -0.37; z-score, replicate C: -0.23

Additional reagents follow:
For TPP2 (tripeptidyl peptidase 2), what does the deposit list?
mean z-score: 1.24; z-score, replicate A: 1.4; z-score, replicate B: 1.26; z-score, replicate C: 1.07

With SUSD4 (sushi domain containing 4) #1, what does the deposit list?
mean z-score: -0.14; z-score, replicate A: -0.02; z-score, replicate B: -0.34; z-score, replicate C: -0.07

What did the screen give for SUSD4 (sushi domain containing 4) #2?
mean z-score: 1.14; z-score, replicate A: 1.23; z-score, replicate B: 1.16; z-score, replicate C: 1.02

For XDH (xanthine dehydrogenase), what was measured?
mean z-score: -1.65; z-score, replicate A: -1.31; z-score, replicate B: -1.79; z-score, replicate C: -1.84

With GRN (granulin precursor), how do the results read?
mean z-score: 1.03; z-score, replicate A: 0.82; z-score, replicate B: 1.11; z-score, replicate C: 1.14

With CDH23 (cadherin related 23), how do the results read?
mean z-score: 0.3; z-score, replicate A: 0.23; z-score, replicate B: 0.45; z-score, replicate C: 0.21

What did the screen give for RNF141 (ring finger protein 141)?
mean z-score: -0.48; z-score, replicate A: -0.74; z-score, replicate B: -0.29; z-score, replicate C: -0.4

Which result is listed for PMPCA (peptidase, mitochondrial processing subunit alpha)?
mean z-score: 0.01; z-score, replicate A: -0.18; z-score, replicate B: 0.23; z-score, replicate C: -0.04

For LOC341651 (retired record), what does the deposit list?
mean z-score: 1.41; z-score, replicate A: 1.47; z-score, replicate B: 1.4; z-score, replicate C: 1.36
